{"source": "PubChem BioAssay AID1259414 (Drosophila RNAi Screening Center, 2018)", "screen": "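Fly genes that alter Wolbachia amount inside host cells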 (primary screen)", "cell system": "Drosophila JW18 cells infected with Wolbachia", "reagent": "long dsRNA against Drosophila genes, 0.25 µg dsRNA per well of a 384-well plate", "time to read-out": "5 days", "conditions": "cells persistently infected with Wolbachia before knock-down; no added drug", "detection": "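Automated imaging of bacterial rRNA staining divided by host cell count, reported as plate-normalised robust z-score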", "scale": "Wolbachia per cell robust z: higher = more Wolbachia per host cell than the plate typical", "rule for the call": "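Active if absolute robust z reaches 1.5 in two or more of three replicates, leaving out multi- or no-target dsRNAs, genes unexpressed in JW18 and A1 wells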", "note": "The deposit covers about 24,000 reagents; this is an unselected part of those that have a named target and a result. Of all reagents, about 1,210 (5%) are marked active. 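Inactive calls also include excluded dsRNAs with several or no targets, genes unexpressed in JW18, and well A1, regardless of score.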 The numbers tell different reagents against one gene apart. Names joined by + are all predicted targets of the reagent. Reagent sequences are not shown."}
{"gene":"CG33703","dsRNA no.":1,"Wolbachia per cell robust z, rep 1":0.172,"Wolbachia per cell robust z, rep 2":-1.3,"Wolbachia per cell robust z, rep 3":-0.869,"Outcome":"inactive"}
{"gene":"Atg5","dsRNA no.":1,"Wolbachia per cell robust z, rep 1":-1.39,"Wolbachia per cell robust z, rep 2":-0.127,"Wolbachia per cell robust z, rep 3":-0.166,"Outcome":"inactive"}
{"gene":"CG11726","dsRNA no.":1,"Wolbachia per cell robust z, rep 1":-2.03,"Wolbachia per cell robust z, rep 2":0.461,"Wolbachia per cell robust z, rep 3":1.24,"Outcome":"inactive"}
{"gene":"l(2)46Cc (retired record)","dsRNA no.":1,"Wolbachia per cell robust z, rep 1":-0.596,"Wolbachia per cell robust z, rep 2":0.286,"Wolbachia per cell robust z, rep 3":0.322,"Outcome":"inactive"}
{"gene":"l(2)46Cc (retired record)","dsRNA no.":2,"Wolbachia per cell robust z, rep 1":0.829,"Wolbachia per cell robust z, rep 2":0.994,"Wolbachia per cell robust z, rep 3":-3.11,"Outcome":"inactive"}
{"gene":"CG31496","dsRNA no.":1,"Wolbachia per cell robust z, rep 1":-2.01,"Wolbachia per cell robust z, rep 2":0.355,"Wolbachia per cell robust z, rep 3":0.799,"Outcome":"inactive"}
{"gene":"CG31496","dsRNA no.":2,"Wolbachia per cell robust z, rep 1":-0.258,"Wolbachia per cell robust z, rep 2":1.55,"Wolbachia per cell robust z, rep 3":1.25,"Outcome":"inactive"}
{"gene":"Orc3 + CG34315","dsRNA no.":1,"Wolbachia per cell robust z, rep 1":0.829,"Wolbachia per cell robust z, rep 2":0.163,"Wolbachia per cell robust z, rep 3":0.42,"Outcome":"inactive"}
{"gene":"Orc3 + CG34315","dsRNA no.":2,"Wolbachia per cell robust z, rep 1":-0.978,"Wolbachia per cell robust z, rep 2":-0.652,"Wolbachia per cell robust z, rep 3":0.137,"Outcome":"inactive"}
{"gene":"TfAP-2","dsRNA no.":1,"Wolbachia per cell robust z, rep 1":0.651,"Wolbachia per cell robust z, rep 2":0.415,"Wolbachia per cell robust z, rep 3":-0.445,"Outcome":"inactive"}
{"gene":"Cyp18a1","dsRNA no.":1,"Wolbachia per cell robust z, rep 1":-0.314,"Wolbachia per cell robust z, rep 2":-0.595,"Wolbachia per cell robust z, rep 3":0.125,"Outcome":"inactive"}
{"gene":"Cyp18a1","dsRNA no.":2,"Wolbachia per cell robust z, rep 1":0.487,"Wolbachia per cell robust z, rep 2":1.07,"Wolbachia per cell robust z, rep 3":0.295,"Outcome":"inactive"}
{"gene":"CG31898","dsRNA no.":1,"Wolbachia per cell robust z, rep 1":-0.252,"Wolbachia per cell robust z, rep 2":-0.907,"Wolbachia per cell robust z, rep 3":0.0829,"Outcome":"inactive"}
{"gene":"obst-I","dsRNA no.":1,"Wolbachia per cell robust z, rep 1":1.1,"Wolbachia per cell robust z, rep 2":0.12,"Wolbachia per cell robust z, rep 3":0.798,"Outcome":"inactive"}
{"gene":"unpg","dsRNA no.":1,"Wolbachia per cell robust z, rep 1":1.68,"Wolbachia per cell robust z, rep 2":-1.02,"Wolbachia per cell robust z, rep 3":0.826,"Outcome":"inactive"}
{"gene":"unpg","dsRNA no.":2,"Wolbachia per cell robust z, rep 1":-0.572,"Wolbachia per cell robust z, rep 2":2.86,"Wolbachia per cell robust z, rep 3":0.0136,"Outcome":"inactive"}

A stretch of the results above:
{"gene":"unpg","dsRNA no.":1,"Wolbachia per cell robust z, rep 1":1.68,"Wolbachia per cell robust z, rep 2":-1.02,"Wolbachia per cell robust z, rep 3":0.826,"Outcome":"inactive"}
{"gene":"unpg","dsRNA no.":2,"Wolbachia per cell robust z, rep 1":-0.572,"Wolbachia per cell robust z, rep 2":2.86,"Wolbachia per cell robust z, rep 3":0.0136,"Outcome":"inactive"}
